One molecule from PubChem BioAssay AID493033 (ICCB-Longwood Screening Facility, Harvard Medical School, 2011) can be followed below.

The chains behind the UniProt entries cited, without tags or fusion partners. Where a name states a change or a piece, a line headed by the entry shows the natural chain unless it says otherwise.
UniProt P9WFX0: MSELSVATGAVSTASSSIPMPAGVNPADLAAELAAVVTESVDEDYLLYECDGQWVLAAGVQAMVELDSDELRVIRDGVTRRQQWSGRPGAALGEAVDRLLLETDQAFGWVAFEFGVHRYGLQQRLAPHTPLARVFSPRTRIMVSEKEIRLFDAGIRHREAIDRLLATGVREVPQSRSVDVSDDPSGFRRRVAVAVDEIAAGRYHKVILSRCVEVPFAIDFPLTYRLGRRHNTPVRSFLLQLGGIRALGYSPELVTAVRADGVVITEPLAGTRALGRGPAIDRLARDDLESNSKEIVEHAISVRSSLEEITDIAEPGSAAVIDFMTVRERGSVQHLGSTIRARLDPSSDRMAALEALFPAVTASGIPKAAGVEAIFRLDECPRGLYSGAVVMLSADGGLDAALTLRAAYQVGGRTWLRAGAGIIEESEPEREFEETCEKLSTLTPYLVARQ

Only a part is listed here, and it is no random draw. The source made the active and inactive calls. No stated cut-off is given here; in the data, active means inhibition mostly above about 56% (no sharp cut-off); inactive means mostly below about 77%.

What is called inhibition is the share of the control response that was lost under treatment.

This test addresses Salicylate synthase (Mycobacterium tuberculosis (strain CDC 1551 / Oshkosh)) (UniProt P9WFX0). As to the kind of experiment: inhibitors of M. tuberculosis MbtI – biochemical, fluorescence intensity, primary screen (AID 493033). The note with it: purified MbtI enzyme, fluorescence intensity read-out; hits give high values; concentration not given here.
Take `CCN1C(=O)N(c2ccccc2)P(=S)(OC)c2cc3c(cc21)OCCO3` (stereo unspecified): the inhibition was active: 94%.
